Experimental data published in patent publication US20090087478A1 (PROGENICS PHARMACEUTICALS NEVADA, published 2009).

B1: rPBA-3, chimeric recombinant form of anti-toxin A monoclonal antibody PBA-3 (wildtype, plasmids BD12584 heavy and BD12585 light) (antibody, V domains shown)
VH: QVQLQQSGPELVKPGASVRISCKASGFTFTSYHVNWVKQRPGQGLEWIGWIYPGNVNTEYNEKFKGKATLTADKSSSTAYMQLSSLTSEDSAVYFCASHEYYGSDWYFDVWGAGTTVTVSS
VL: DAVMTQTPLSLPVSLGDQASISCRSSQSLENRNGNTYLNWYLQKPGQSPQLLIYRVSNRFSGVLDRFSGSGSGTDFTLKISRVEAEDLGVYFCLQVTHVPYTFGGGTKLEIK
B2: Antibody 227 (or 3359), murine monoclonal anti-toxin A antibody (antibody, V domains shown)
VH: EVQLVESGGGLMKPGGSLKLSCAASGFAFGSYDMSWVRQTPEKRLEWVAYISSGGGITFYPDSVRGRFTISRDNAKNSLYMEMSSLRSEDTAMYYCARWDWDLFAYWGQGTLVTVSA
VL: DIKMTQSPSSMYTSLGERVTITCKASQDINSCLSWFQQKPGKSPKALIFRANILVDGVPSRFSGSGSGQDYSLTISSLEYEDLGIYYCLQYDEFPWTFGGGTRLEIK
B3: Antibody 3358 (or 543), murine monoclonal anti-toxin A antibody (antibody, V domains shown)
VH: QVQLQQPGAELVKPGASVRLSCKAGGYTFTSYWLHWVKQRPGQGLEWIGMIHPNSGSYDYSETFRTKATLTVDKSSDTAYMQLTSLTSEDSAVYYCARGGSNYDIFAYWGQGTTLTVSS
VL: NIVMTQSPKSMSMSVGERVTFNCRASENVGTYVFWYQQKPEQSPRLLIYGASNRYTGVPDRFTGSGSATDFTLTISGVQAEDLADYHCGQSYRHLTFGGGTKLEIK

Tests used:
[1] = biological target: ToxA:2078-2234 (seven-repeat central part of the toxin A CWB domain) (Clostridium difficile, UniProt P16154 2078-2234)
[2] = biological target: ToxA:1800-1945 (six-repeat N-terminal part of the toxin A CWB domain) (Clostridium difficile, UniProt P16154 1800-1945)

| Binder | Kd [1] [nM] | Kd [2] [nM] |
| --- | --- | --- |
| B1 | 55 | – |
| B2 | 13 | 100 |
| B3 | 3.4 | 0.6 |
